Results: patent US20040039047A1 (priority 1998, published 2004)

Tests used:
[1] = test system: human epidennoid cells, virally infected with HSV-2; assay: Cell viability / cytotoxic and toxic concentrations in the same in vitro model; conditions: ballpark guideline; for Trichothecene in vitro concentration, Cytotoxic Lo: lower end of cytotoxic range; for Trichothecene in vitro concentration, Cytotoxic Hi: upper end of cytotoxic range
[2] = test system: human epidennoid cells, virally infected with HSV-2; conditions: cited from earlier work; for Trichothecene in vitro concentration, Inhibitory 100%: 100% inhibition of hyperactive protein synthesis; for inhibition of hyperactive protein synthesis: by ~5 ng/ml
[3] = test system: human epidennoid cells, virally infected with HSV-2; conditions: concentrations of 10 ng/ml or less; cited from earlier work

Substance | Trichothecene in vitro concentration, Cytotoxic Lo [1] | Trichothecene in vitro concentration, Cytotoxic Hi [1] | Trichothecene in vitro concentration, Inhibitory 80% ([2]; 80% inhibition of hyperactive protein synthesis) | Trichothecene in vitro concentration, Inhibitory 100% [2] | inhibition of hyperactive protein synthesis [2] | cell viability [3]
Roridin A | 6 ng/mL | 10 ng/mL | 2.0 ng/mL | 5.0 ng/mL | 100% | did not reduce cell viability
Satratoxin G | 6 ng/mL | 10 ng/mL |  | 5.0 ng/mL | 100% | did not reduce cell viability
